In one assay the target is plasmepsin IV (Plasmodium falciparum, UniProt Q8IM16). The experiment in a line: FRET assay for plasmepsin IV. To be noted: read-out: IC50 (PM IV in nM), pH 5, 37° C., substrate M-2120 1 μM. Type of assay: biochemical. The procedure:
(§1) The Fluorescence Resonance Energy Transfer (FRET) Assay for Plasmepsin II & IV and Human Cathepsin D & E:
(§2) The assay conditions are selected according to reports in the literature.
(§3) The FRET assay is performed in white polysorp plates (Fluoronunc, cat no 264 572) at 37° C. with a final volume of 80 μl.
(§4) The assay buffer is composed of 50 mM sodium acetate pH 5, 12.5% (w/v) glycerol, and 0.1% (w/v) BSA. The reaction consists of the following components: 60 μl assay buffer, 4 μl inhibitor (in DMSO), 8 μl substrate (M-2120 from BACHEM) to a final concentration of 1 μM and 8 μl enzyme (plasmepsin II, plasmepsin IV or cathepsin E to a final amount of 0.015 μg/ml per assay tube, cathepsin D to a final amount of 0.05 μg/ml per assay tube). The inhibitor is pre-diluted in DMSO in a dilution plate and six concentrations are prepared in duplicate. The compounds are usually tested at a final concentration varying from 1 nM to 100 μM. The substrate is diluted using 50% DMSO-50% assay buffer and the enzyme using assay buffer. The mixtures are then incubated for 3 h at 37° C. and the fluorescence is determined at 1 and 3 hour with a FluoroStar Galaxy from BMG using excitation and emission filters of 355 and 520 nm, respectively.
(§5) Auto-fluorescence of all the test substances is determined in assay buffer in the absence of substrate and enzyme and this value is subtracted from the final signal.
(§6) The inhibitory activity of the compounds is expressed as IC50, which represents the concentration of compound that inhibits 50% of the maximal (uninhibited) enzyme activity.

Chains of the proteins cited; added tags and fusions are not shown. Residues count along the entry.
UniProt Q8IM16, 122-449 limits assumed: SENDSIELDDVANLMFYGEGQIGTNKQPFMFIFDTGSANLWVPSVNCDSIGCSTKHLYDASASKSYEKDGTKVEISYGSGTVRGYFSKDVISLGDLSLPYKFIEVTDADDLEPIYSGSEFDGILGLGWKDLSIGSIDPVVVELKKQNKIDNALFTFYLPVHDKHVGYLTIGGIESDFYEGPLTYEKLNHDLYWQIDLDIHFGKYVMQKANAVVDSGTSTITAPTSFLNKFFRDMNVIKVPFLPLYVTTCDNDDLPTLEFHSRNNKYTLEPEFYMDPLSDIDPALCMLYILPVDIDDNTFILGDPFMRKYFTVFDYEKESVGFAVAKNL
UniProt Q8I6V3, 125-453 limits assumed: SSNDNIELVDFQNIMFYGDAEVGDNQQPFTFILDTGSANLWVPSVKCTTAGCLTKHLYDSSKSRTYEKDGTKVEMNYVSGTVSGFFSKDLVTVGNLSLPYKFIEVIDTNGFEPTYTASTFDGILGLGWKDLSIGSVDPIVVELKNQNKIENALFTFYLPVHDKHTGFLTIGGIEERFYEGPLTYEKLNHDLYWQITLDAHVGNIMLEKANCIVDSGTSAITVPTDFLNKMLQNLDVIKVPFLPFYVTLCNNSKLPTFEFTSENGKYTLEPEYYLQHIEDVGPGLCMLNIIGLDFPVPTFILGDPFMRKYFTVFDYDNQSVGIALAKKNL

In a further assay the target is plasmepsin II (Plasmodium falciparum, UniProt Q8I6V3). The experiment in a line: FRET assay for plasmepsin II. The class given is biochemical. To be noted: read-out: IC50 (PM II in nM), pH 5, 37° C., substrate M-2120 1 μM. The procedure:
as §1, §2, §3, §4, §5, §6

SMILES strings stand for the structures.

With `CCCCCc1ccc(C(=O)N(Cc2ccc(NC(=O)c3ccc(C#N)cc3)cc2)C2CCN(CCC(C)C)CC2)cc1`, the concentration for half-maximal inhibition (IC50) on plasmepsin IV turned out to be 434 nM; on plasmepsin II it was 22 nM.
With `CCCCCc1ccc(C(=O)N(Cc2ccc(-c3ccc(C)cc3)cc2)C2CCN(CCC(C)C)CC2)nc1`, the results for the IC50 on plasmepsin IV and on plasmepsin II were 167 nM and 22 nM, respectively.
Taken in the same sequence, the figures for `CCCCCc1ccc(C(=O)N(Cc2ccc(C(=O)NCc3ccc4c(c3)OCO4)cc2)C2CCN(CCC(C)C)CC2)cc1` were 1820 nM and 14 nM.
Consider `CCCCCc1ccc(C(=O)N(Cc2ccc(-c3ccccc3Cl)o2)C2CCN(CCC(C)C)CC2)cc1`, for which the half-inhibitory concentration (IC50) was determined as 276 nM at plasmepsin IV and 110 nM on plasmepsin II.
For `CCCCCc1ccc(C(=O)N(Cc2ccc(NC(=O)c3cccc(C#N)c3)cc2)C2CCN(CCC(C)C)CC2)cc1` the same measures were 495 nM and 60 nM.
Turning to `CCCCCc1csc(C(=O)N(Cc2ccc(-c3ccc(C(=O)N4CCC(CCO)CC4)cc3)cc2)C2CCN(CCC(C)C)CC2)c1`, the half-maximal inhibitory concentration (IC50) at plasmepsin II was determined as 43 nM.
On to `CCCCCc1ccc(C(=O)N(Cc2ccc(-c3cccc(C(F)(F)F)c3)cc2)C2CCN(CCC(C)C)CC2)nc1`, for which the IC50 is 406 nM at plasmepsin IV and 48 nM at plasmepsin II.
`CCCCCc1ccc(C(=O)N(Cc2ccc(-c3cc(C(C)(C)C)no3)cc2)C2CCN(CCC(C)C)CC2)cc1`: the IC50 at plasmepsin II turned out to be 43 nM.
As to `CCCCCc1ccc(C(=O)N(Cc2ccc(-c3cccc(F)c3)cc2)C2CCN(CCC(C)C)CC2)nc1`, the 50% inhibitory concentration (IC50) came to 27 nM on plasmepsin IV and 18 nM at plasmepsin II.
Taken in the same sequence, the figures for `CCCCCc1ccc(C(=O)N(Cc2ccc(NC(=O)c3cccc(Cl)c3)cc2)C2CCN(CCC(C)C)CC2)cc1` were 580 nM and 50 nM.
For the compound `CCCCCc1ccc(C(=O)N(Cc2ccc(-c3cc(C(C)C)no3)cc2)C2CCN(CCC(C)C)CC2)cc1`, the concentration for half-maximal inhibition (IC50) at plasmepsin IV is 897 nM; at plasmepsin II, 16 nM.
In the case of `CCCCCc1ccc(C(=O)N(Cc2ccc(N(C)Cc3ccccc3)cc2)C2CCN(CCC(C)C)CC2)nc1`, the IC50 at plasmepsin IV was found to be 1880 nM; at plasmepsin II it was 40 nM.
Turning to `CCCCCc1ccc(C(=O)N(Cc2ccc(C(=O)Nc3ccc(OC)cc3)cc2)C2CCN(CCC(C)C)CC2)cc1`, the IC50 at plasmepsin II was 44 nM.
As for `CCCCCc1ccc(C(=O)N(Cc2ccc(-c3noc(-c4ccc(OC)c(OC)c4)n3)cc2)C2CCN(CCC(C)C)CC2)nc1`, the IC50 on plasmepsin IV was 3440 nM; at plasmepsin II, 80 nM.

For the origin of these results see patent publication US20080076762A1, “Novel 4-Aminopiperidine Derivatives” (priority 2004, published 2008).
